Reference: paper PMC10538546

Legend:
[1] = molecular target: P-BvrR (GST-BvrR phosphorylated with carbamoyl phosphate) (UniProt Q2YQY4); experiment: EMSA; conditions: recombinant protein, protein details: GST
[2] = molecular target: P-BvrR (GST-BvrR phosphorylated with carbamoyl phosphate) (UniProt Q2YQY4); experiment: competition with a labelled probe; conditions: recombinant protein; protein details: GST; label: none as competitor, DIG (EMSA)
[3] = molecular target: P-BvrR (GST-BvrR phosphorylated with carbamoyl phosphate) (UniProt Q2YQY4); experiment: fluorescence anisotropy; conditions: one-site model, no Kd reported; recombinant protein; protein details: GST
[4] = molecular target: P-BvrR (GST-BvrR phosphorylated with carbamoyl phosphate) (UniProt Q2YQY4); experiment: DNase I footprinting; conditions: recombinant protein; protein details: GST; label: DIG (EMSA), HEX or FAM (footprinting); letters put together from the description
[5] = P-BvrR 0.1-1.6 uM, label: none as competitor, DIG (EMSA)

Sequence: AGGGACCGCGCAAAACGTAATTTGTGTAAGGAGAATGCCA (double strand) [oligonucleotide 7 (-39 to +1)]
- binding result [1, 5]: binds
- binding result [2]: binds

Sequence: ATCTCCACACAATGGGGCATTTCGTGCCGCAATTACCCTCG (double strand) [oligonucleotide 2 (-140 to -100)]
- binding result ([1]; P-BvrR 0.1-1.6 uM): binds
- binding result [3]: binds

Sequence: CAGCTTCGCTGCATTGCTGGCAATGGTTTCGGCTTCTCCTGTCTGTTGCCCCTTCAATATAGGGTGTGAAAGCCGGCGTTGCGATAATGCAACATCGCATTTTTGCCATCTTCTCGACAGATTATCTCCACACAATGGGGC (double strand) [omp25 141-bp fragment (-262 to -122)]
- binding result ([1]; P-BvrR 0.1-1.6 uM, label: DIG, letters put together from the description): binds

Sequence: GATATGTCACCCCTGTCAGCGCGGCATGGGCGGTTTACTCC (double strand) [oligonucleotide 4 (-100 to -59)]
- binding result [1, 5]: binds
- binding result [2]: binds

Sequence: GCCATCTTCTCGACAGATTATCTCCACACAATGGGGCATTTCGTGCCGCAATTACCCTCGATATGTCACCCCTGTCAGCGCGGCATGGGCGGTTTACTCCCGATGCTGCCCGCCCGATAAGGGACCGCGCAAAACGTAATTTGTGTAAGGAGAATGCCATGCGCACTCTTAAGTCTCTCGTAATCGTCTCGG (double strand) [omp25 193-bp fragment (-159 to +34)]
- binding result ([1]; label: DIG (EMSA), HEX or FAM (footprinting), letters put together from the description): binds
- binding result [4]: binds

The exact form of at least one protein or probe is not confirmed. For part of these data: At least one verdict rests on a figure or table, not on a statement of the authors.
